From PubChem BioAssay AID504884 (Broad Institute, 2011) come the findings set out here.

The list shows a part of the results, in another mix than the full data. The source made the active and inactive calls. Cut-off read from the data, not from the text of the source: active = activity above about 50% (passing the limit was not always enough); inconclusive = no clear call, values can overlap the other calls.

For this assay, the system named is DNA topoisomerase I (Yersinia pestis CO92). The experiment in a line: Yersinia pestis topoisomerase I inhibitors, primary screen, biochemical, cleavage product accumulation, plate reader, single point (AID 504884). Conditions: Y. pestis Topo-I cleavage product accumulation, at 10 µM, hits give high values.
For the molecule `O=C(NCC1(N2CCOCC2)CCCCC1)c1cc(Br)ccc1Cl`, the activity is inactive: -4.75%.

Turning to `COc1cc(C(=O)NCC2(N3CCOCC3)CCCCC2)cc(OC)c1C`, the activity was inactive: -0.579%.

As for `COc1ccc(C(=O)NCC2(N3CCOCC3)CCCCC2)cc1OC`, the activity was inactive: 26.8%.

For `N/C(=N\O)c1c(N)no[n+]1[O-]`, the activity was inactive: -5.63%.

Take `CCOC(=O)N1CCC(Nc2ccc(C)cc2)CC1`: the activity is inactive: 9.52%.

Regarding `O=C(OC1CN2CCC1CC2)C1c2ccccc2C=Cc2ccccc21` (stereo not given), the activity is inactive: 2.2%.

Consider `CC(C)(C)OC(=O)N1CCC(N(C(=O)c2ccccc2)c2ccc(Cl)cc2)CC1`, for which the activity is inactive: 12.1%.

With `N#Cc1ccc(C(=O)NCC2(N3CCCCC3)CCCCC2)cc1`, the activity was inactive: -1.02%.

On to `Cc1cc(N(CCCl)CCCl)ccc1C=O`, for which the activity was inactive: 4.34%.

Regarding `CCCN1CCC(Nc2cc(OC)cc(OC)c2)CC1`, the activity was inactive: 2.91%.

With `c1ccc(CN2CCC(Nc3ccccc3)CC2)cc1`, the activity was inactive: 0.125%.

In the case of `CN(C)C1(CNC(=O)c2cccc(C#N)c2)CCCCC1`, the activity was inactive: -1.77%.

Consider `COc1cc(OC)cc(C(=O)NCC2(N3CCCCC3)CCCCC2)c1`, for which the activity is inactive: 3.96%.

`CC(=O)N(c1ccccc1)C1CCNCC1`: the activity was inactive: 6.78%.

As for `Cc1ccc(NC2(C#N)CCN(Cc3ccccc3)CC2)cc1`, the activity is inactive: -4.39%.

Regarding `Fc1ccccc1NC1CCN(Cc2ccccc2)CC1`, the activity is inactive: 6.51%.

As to `Cc1ccc(C(=O)NCC2(N3CCCCC3)CCCCC2)o1`, the activity was inactive: 1.56%.

Turning to `CCN1CCC(Nc2cccc(F)c2)CC1`, the activity is inactive: -0.309%.

Take `Cc1ccccc1NC1(C#N)CCN(Cc2ccccc2)CC1`: the activity is inactive: 3.45%.

Turning to `CN(C)c1ccc(C(=O)NCC2(N3CCCCC3)CCCCC2)cc1`, the activity is inactive: 15%.

On to `Cn1c(=O)[nH]cc(N(CCCl)CCCl)c1=O`, for which the activity was inactive: 3.03%.

In the case of `O=C(NCC1(N2CCCCC2)CCCCC1)c1ccco1`, the activity was inactive: -0.193%.

`CN1CCC(Nc2ccc(F)c(Cl)c2)CC1`: the activity was inactive: -5.15%.

Turning to `CCOc1ncccc1C(=O)NCC1(N2CCOCC2)CCCCC1`, the activity is inactive: 17.5%.

`CCCOc1ccc(C(=O)NCC2(N(C)C)CCCCC2)cc1`: the activity was inactive: 0.655%.

Consider `O=C(O)C1(Nc2ccccc2)CCN(Cc2ccccc2)CC1`, for which the activity is inactive: 4.69%.

On to `CC(C)(C)OC(=O)N1CCC(Nc2ccccc2)CC1`, for which the activity was inactive: 2.53%.

With `CCC(CO)(C(=O)OC1CN2CCC1CC2)c1ccccc1` (stereo not given), the activity is inactive: -2.46%.

Take `COc1cccc(C(=O)N(c2cc(C)cc(C)c2)C2CCN(C(=O)OC(C)(C)C)CC2)c1`: the activity is inactive: 1.15%.

Turning to `COc1cc(OC)cc(C(=O)NCC2(N3CCOCC3)CCCCC2)c1`, the activity was inactive: 13.3%.

As to `CN1CCC(Nc2ccc(Cl)cc2)CC1`, the activity was inactive: -1.22%.

As for `O=C(NCC1(N2CCCCC2)CCCCC1)c1cccs1`, the activity was inactive: 3.16%.

Consider `O=C(NCC1(N2CCCCC2)CCCCC1)c1ccc(=O)[nH]c1`, for which the activity was inactive: -3.46%.

As to `CC(C)(C)OC(=O)N1CCC(N(C(=O)c2ccccc2)c2ccc(F)cc2)CC1`, the activity is inactive: 27.3%.

Regarding `COc1ccc(C(=O)NCC2(N3CCCCC3)CCCCC2)c(OC)c1OC`, the activity was inactive: 0.901%.

In the case of `COc1ccc(C(=O)NCC2(N3CCCCC3)CCCCC2)cc1`, the activity was inactive: 6.58%.

Turning to `Cc1cccc(NC2(C#N)CCN(Cc3ccccc3)CC2)c1`, the activity was inactive: 12.5%.

Take `CSc1ccccc1C(=O)NCC1(N2CCCCC2)CCCCC1`: the activity was inactive: 22%.

Take `O=C(NCC1(N2CCOCC2)CCCCC1)c1cc2ccccc2o1`: the activity was inactive: -1.67%.

Regarding `Cc1cc(C)cc(N(C(=O)c2ccccc2)C2CCN(C(=O)OC(C)(C)C)CC2)c1`, the activity is inactive: 38.6%.

Turning to `O=C(NCC1(N2CCCCC2)CCCCC1)c1ccc(Cl)nc1`, the activity is inactive: 2.41%.

Turning to `CCOC(=O)N1CCC(Nc2ccc(OC)cc2)CC1`, the activity is inactive: -8.85%.

As for `COc1ccc(Cl)cc1C(=O)NCC1(N2CCOCC2)CCCCC1`, the activity is inactive: 18.4%.

Turning to `N#CC1(Nc2ccccc2)CCN(Cc2ccccc2)CC1`, the activity was inactive: 4.19%.

As for `O=C(NCC1(N2CCCCC2)CCCCC1)c1ccc(Cl)s1`, the activity was inactive: 1.52%.

As to `O=C(OC1CN2CCC1CC2)C1c2ccccc2Oc2ccccc21` (stereo not given), the activity was inactive: 10.1%.

With `CCOc1ccc(C)cc1CN(CCCl)CCCl`, the activity is inactive: -4.66%.

As to `O=C1CCN(Cc2ccccc2)CC1`, the activity was inactive: 12.1%.

`CCOC(=O)N1CCC(Nc2ccc(F)cc2)CC1`: the activity is inactive: 2.24%.

`COc1ccc(NC2CCN(CCc3ccccc3)CC2)c(OC)c1`: the activity is inactive: 10%.

For the molecule `CCCCOc1ccc(C(=O)NCC2(N3CCOCC3)CCCCC2)cc1`, the activity is inactive: 4.54%.

As to `O=P1(N(CCCl)CCCl)SCCCS1`, the activity is inactive: 3.05%.

Regarding `O=C(NCC1(N2CCCCC2)CCCCC1)c1ccc(F)cc1`, the activity was inactive: -5.83%.

Take `CCOC(=O)N1CCC(Nc2cccc(C)c2)CC1`: the activity is inactive: -3.03%.

`COc1cc(C(=O)NCC2(N(C)C)CCCCC2)ccc1OC(F)F`: the activity was inactive: -4.89%.

For `O=C(NCC1(N2CCCCC2)CCCCC1)c1ccc(OC(F)F)cc1`, the activity is inactive: 6.09%.

As to `CSc1ccc(C(=O)NCC2(N3CCOCC3)CCCCC2)cc1`, the activity was inactive: 6.94%.

In the case of `O=C(NCC1(N2CCCCC2)CCCCC1)c1cccc([N+](=O)[O-])c1`, the activity is inactive: 0.23%.

Regarding `N#CC1(Nc2ccccc2)CCN(CCc2ccccc2)CC1`, the activity is inactive: 4.8%.

As to `CCN1CCC(Nc2ccc(Cl)cc2)CC1`, the activity is inactive: 0.425%.

`O=C(NCC1(N2CCCCC2)CCCCC1)c1cccc(C(F)(F)F)c1`: the activity was inactive: -6.53%.

As to `CC(C)c1ccc(C(=O)NCC2(N3CCOCC3)CCCCC2)cc1`, the activity was inactive: 14.9%.

With `COc1ccc(NC2CCN(C(=O)OC(C)(C)C)CC2)cc1`, the activity was inactive: -2.36%.

As to `CN1CCN(CCOC(=O)C(O)(c2ccccc2)c2ccccc2)CC1`, the activity was inactive: -7.51%.

As for `O=C(NCC1(N2CCOCC2)CCCCC1)c1cc(=O)[nH]c2ccccc12`, the activity is inactive: 7.91%.

For `COc1cc(C(=O)NCC2(N3CCCCC3)CCCCC2)ccc1OC(F)F`, the activity was inactive: -12.6%.

On to `CN(C)c1cccc(C(=O)NCC2(N3CCCCC3)CCCCC2)c1`, for which the activity was inactive: 1.07%.

In the case of `COc1ccc(CN(CCCl)CCCl)cc1Cl`, the activity was inactive: 2.76%.

On to `CC(C)c1ccc(NC2CCN(C(=O)OC(C)(C)C)CC2)cc1`, for which the activity was inactive: 7.44%.

Regarding `O=C(NCC1(N2CCOCC2)CCCCC1)c1cc(F)c(F)cc1Cl`, the activity is inactive: -2.47%.

Regarding `COc1cc(OC)c(C(=O)NCC2(N(C)C)CCCCC2)cc1OC`, the activity was inactive: 4.32%.

On to `CN1CCC(Nc2cccc(F)c2)CC1`, for which the activity was inactive: 0.188%.

With `O=C(NCC1(N2CCCCC2)CCCCC1)c1cncc(Br)c1`, the activity was inactive: -10.3%.

In the case of `CCCOc1ccc(C(=O)NCC2(N(C)C)CCCCC2)cc1OC`, the activity was inactive: -0.125%.

`Cc1ccc(C(=O)NCC2(N(C)C)CCCCC2)o1`: the activity was inactive: -0.314%.
